Source: paper PMC8121815 (Nature Communications, 2021)

Sequences of proteins named here, by UniProt entry; tags and fusion partners are left off. Residues count along the entry.
UniProt O94826, 106-608 H583Q limits assumed: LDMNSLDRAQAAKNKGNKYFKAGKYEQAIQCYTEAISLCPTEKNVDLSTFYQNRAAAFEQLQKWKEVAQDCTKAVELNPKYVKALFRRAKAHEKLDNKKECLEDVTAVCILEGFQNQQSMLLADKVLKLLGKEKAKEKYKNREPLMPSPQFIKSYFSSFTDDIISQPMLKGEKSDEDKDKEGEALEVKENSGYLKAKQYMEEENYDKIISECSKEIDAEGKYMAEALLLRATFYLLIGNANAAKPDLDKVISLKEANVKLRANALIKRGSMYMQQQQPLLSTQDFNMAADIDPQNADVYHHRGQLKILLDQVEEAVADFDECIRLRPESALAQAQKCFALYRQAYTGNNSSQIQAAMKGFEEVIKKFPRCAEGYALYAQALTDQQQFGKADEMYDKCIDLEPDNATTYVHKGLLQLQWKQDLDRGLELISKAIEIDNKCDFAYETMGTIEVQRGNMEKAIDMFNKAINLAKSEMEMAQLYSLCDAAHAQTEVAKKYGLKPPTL

Legend:
hTOM70 mutant H583Q = hTOM70 mutant H583Q (Homo sapiens, UniProt O94826, H583Q); experiment: ITC, hTOM70 mutant H583Q
hTOM70 mutant E549I = experiment: ITC, hTOM70 mutant E549I

In the case of `CC[C@H](C)[C@H](N)C(=O)N[C@H](C(=O)N[C@@H](CC(C)C)C(=O)N[C@@H](CCCNC(=N)N)C(=O)N[C@@H](CC(C)C)C(=O)NCC(=O)N[C@@H](CO)C(=O)N1CCC[C@H]1C(=O)N[C@@H](CC(C)C)C(=O)N[C@@H](CO)C(=O)N[C@@H](CC(C)C)C(=O)N[C@@H](CC(N)=O)C(=O)N[C@@H](CCSC)C(=O)N[C@@H](C)C(=O)N[C@@H](CCCNC(=N)N)C(=O)N[C@@H](CCCCN)C(=O)N[C@H](C(=O)N[C@@H](CC(C)C)C(=O)N[C@@H](CC(N)=O)C(=O)N[C@@H](CO)C(=O)N[C@@H](CC(C)C)C(=O)N[C@@H](CCC(=O)O)C(=O)N[C@@H](CC(=O)O)C(=O)N[C@@H](CCCCN)C(=O)N[C@@H](C)C(=O)N[C@@H](Cc1ccccc1)C(=O)N[C@@H](CCC(N)=O)C(=O)O)[C@@H](C)O)[C@@H](C)CC` [C-peptide], the “thermodynamic nature of binding” value (hTOM70 mutant H583Q) is reported as “endothermic”, the “impact of mutation on binding” value (hTOM70 mutant E549I) is reported as “only had a moderate impact on binding” and the “thermodynamic nature of binding” value (hTOM70 mutant E549I) is reported as “endothermic”.
